Anti-infective test results gathered from many reports (values: NIAID ChemDB through PubChem).

All rows: tests in culture; agent: Mycobacterium tuberculosis

Two numbers with a dash give a range or band. MIC bound: limit read from a one-dose screen. Percent inhibition refers to the dose given; in toxicity tests it is the harm to the cells. ECn is the concentration giving n% inhibition of infection, replication or growth. Neighbouring rows are from separate reports. A number after MIC or MFC names an inhibition level or a share of isolates. An empty or dashed field is not shown.

SMILES | tested at | mutations | read-out | read by | strain or isolate | value
N#Cc1c(Cl)c2cc([N+](=O)[O-])ccc2n2c1nc1ccccc12 | - | - | MIC bound | resazurin | H37Rv | >6.25 µg/mL
CCCCCc1cc(O)cc(OC)c1 | - | - | MIC | - | H37Rv | 60 µg/mL
COc1ccc(OC)c(/C=N/NC(=O)CSc2nc3ccc(C)cc3c(=O)n2-c2ccccc2)c1 | - | - | MIC | - | H37Rv | >6.25 µg/mL
COc1ccc2nc(C)cc(N/N=C/c3ccccc3[N+](=O)[O-])c2c1 | - | - | MIC | - | H37Rv | 10 µg/mL
Clc1ccc(C2Cc3nc4ccc(Cl)cc4c(-c4ccccc4)c3S2)c(Cl)c1 | - | - | MIC | agar | MDR | 1.76 µM
CCn1cc(C(=O)O)c(=O)c2cc(F)c(N3CCN(C)CC3)cc21 | - | - | MIC90 | - | 21 strains | 8 µg/mL
Clc1ccc(C2Cc3nc4ccc(Cl)cc4c(-c4ccccc4)c3S2)cc1 | - | - | MIC | agar | H37Rv | 3.82 µM
Cc1ccc(S(=O)(=O)NNC(=O)c2ccccc2NCCO)cc1 | - | - | MIC | BACTEC | H37Rv | ≥12.5 µg/mL
O=C1N(CC2CC2)c2ccccc2C12CCN(CC1CCCO1)CC2 | - | - | MIC | resazurin | H37Rv | 200 µM
CCCc1cc(O)cc(O)c1/C=C1\S/C(=N\c2ccccn2)N(c2ccc(OCC)cc2)C1=O | - | - | MIC | - | H37Rv | ≥25 µg/mL
FC(F)(F)c1ccc2c3c(c4c(c2n1)OCN(Cc1ccc(Cl)cc1Cl)C4)CN(Cc1ccc(Cl)cc1Cl)CO3 | - | - | MIC bound | - | H37Rv | >6.25 µg/mL
NC(=S)Nc1c(O)cccc1O | - | - | MIC | - | A67 | 2 µM
CC[C@H]1OC(=O)[C@H](C)[C@@H](O[C@H]2C[C@@](C)(OC)[C@@H](O)[C@H](C)O2)[C@H](C)[C@@H](O[C@@H]2O[C@H](C)C[C@H](N(C)C)[C@H]2O)[C@](C)(OC)C[C@@H](C)C(=O)[C@H](C)[C@@H](O)[C@]1(C)O | - | - | MIC | - | MDR-1 (MDR) | >8 µg/mL
O=c1[nH]c2ccccc2c(=O)n1-c1ccccc1 | - | - | MIC bound | resazurin | H37Rv | >6.25 µg/mL
O=c1[nH]c(=S)c(CO)cn1C1OC(CO)C(O)C1O | - | - | MIC100 | resazurin | H37Ra | 100 µg/mL
COc1nc2ccc(Br)cc2cc1C1C(Cl)C(=O)N1NC(=O)c1ccc(-n2cccc2)cc1 | - | - | MIC | resazurin | H37Rv | 6.25 µg/mL
CCc1cn(C2OC(COC(C)=O)C(OC(C)=O)C2F)c(=O)[nH]c1=O | - | - | MIC55 | resazurin | H37Ra | 50 µg/mL
COc1ccc(-c2nc(NC3CCCCC3)[nH]c(=O)c2C#N)cc1 | - | - | MIC | - | H37Ra | >50 µg/mL
c1ccc(-c2c3c(nc4ccccc24)CC(c2cccc4ccccc24)S3)cc1 | - | - | MIC | agar | H37Rv | 32.09 µM
Cc1ccc2nc(SCC(=O)N/N=C/c3ccccc3)n(-c3ccccc3)c(=O)c2c1 | - | - | MIC | - | H37Rv | >6.25 µg/mL
Oc1cc2c(cc1O)C1c3ccc(O)c(O)c3OCC1(O)C2 | - | - | MIC | BACTEC | H37Rv | ≥128 µg/mL
Cc1ccc(C2Cc3nc4ccccc4c(-c4ccccc4)c3S2)cc1 | - | - | MIC | agar | H37Rv | 35.36 µM
NNC(=O)c1ccccc1SSc1ccccc1C(=O)NN | - | - | MIC | - | RMP-R | >12.5 µg/mL
C1=C(c2nc(-c3cccnc3)no2)c2ccccc2C12CCN(CC1CCCO1)CC2 | - | Spiroindene-resistant | MIC | turbidity | H37Rv | 1.5 µM
COc1ccc(-c2nc3c(=O)n(C)c(=O)n(C)c3nc2-c2ccc(OC)cc2)cc1 | 12.5 µg/mL | - | inhibition | BACTEC | H37Rv | 0%
NNC(=O)c1cccs1 | - | pMV361::katG | MIC99.9 | visual reading | H37Rv | ≤5 µg/mL
Cc1cc(=O)oc2cc(O)c(O)cc12 | - | - | MIC | - | H37Rv | 10 µg/mL
COc1nc2ccc(Br)cc2cc1/C=N/NC(=O)c1ccncc1 | - | - | MIC | resazurin | H37Rv | 6.25 µg/mL
CCN(CC)P1(=S)OCC(C)O1 | - | - | MIC bound | resazurin | H37Rv | >6.25 µg/mL
NC(=S)N/N=C/c1cc(Br)ccc1O | - | - | MIC | - | A67 | 250 µM
O=S(=O)(O)CC(O)CN1CCN(CCO)CC1 | - | - | MIC | BACTEC | H37Rv | ≥12.8 µg/mL
CN(C)c1ccc(-c2nc(NCCCN3CCOCC3)[nH]c(=O)c2C#N)cc1 | - | - | MIC | - | H37Ra | >50 µg/mL
CCCCCC/C=C\CCCCCCCc1cc(O)c(C)c(O)c1 | - | - | MIC | - | H37Rv | 19.3 µg/mL
COC(=O)CC(C(C(C)=O)C(=O)OCc1ccccc1)N1C(=O)OC(c2ccccc2)C1c1ccccc1 | - | - | MIC bound | BACTEC | H37Rv | >12.5 µg/mL
Cc1ccc(-c2noc(C3=CC4(CCN(CC5CCCO5)CC4)c4ccccc43)n2)cn1 | - | Rifampicin-resistant | MIC | resazurin | 19000 | 0.78 µM
COc1ccc(C(=O)N=C2N(c3ccccc3)C(=Nc3ccccc3)C(=Nc3ccccc3)N2c2ccccc2)cc1 | - | - | MIC bound | BACTEC | H37Rv | >12.5 µg/mL
Cc1cccc(NC(N)=S)c1 | - | - | MIC | - | A67 | 62.5 µM
O=S1(=O)CC2C3C=CC(O3)C21 | - | - | MIC bound | BACTEC | H37Rv | >12.5 µg/mL
CN(C)c1ccc(-c2nc(NCCN3CCOCC3)[nH]c(=O)c2C#N)cc1 | - | - | MIC | - | H37Ra | >50 µg/mL
C=CCN1C(=O)/C(=C/c2ccc(O)c(OCC)c2)S/C1=N\c1nc2ccccc2s1 | - | - | MIC | - | H37Rv | ≥25 µg/mL
CCCCNc1nc(-c2ccc(N(C)C)cc2)c(C#N)c(=O)[nH]1 | - | - | MIC | - | H37Ra | >50 µg/mL
CCOc1ccc(N2C(=O)/C(=C/c3ccc(O)c(OC)c3)S/C2=N\c2ccccn2)cc1 | - | - | MIC | - | H37Rv | ≥25 µg/mL
O=C(N/N=C/c1cccs1)c1cnccn1 | - | - | MIC | resazurin | ATCC 27294 | >100 µg/mL
CO[C@H]1/C=C/O[C@@]2(C)Oc3c(C)c(O)c4c(O)c(c(/C=N/N5CCN(C6CCCC6)CC5)c(O)c4c3C2=O)NC(=O)/C(C)=C\C=C\[C@H](C)[C@H](O)[C@@H](C)[C@@H](O)[C@@H](C)[C@H](OC(C)=O)[C@@H]1C | - | - | MIC50 | - | 29 isolates | 0.125 µg/mL
CC(C)OC(=S)SSC(=S)NCCNC(=S)SSC(=S)OC(C)C | - | - | MIC | BACTEC | H37Rv | 6.25 µg/mL
C1=C(c2nc(-c3ccccc3)no2)c2ccccc2OC12CCN(CC1CCCO1)CC2 | - | - | MIC | turbidity | TB333 | 12.5 µM
CN1CCN(c2nc(-c3cccnc3)c(C#N)c(=O)[nH]2)CC1 | - | - | MIC | - | H37Ra | >50 µg/mL
Nc1ccc(Cl)cc1C(=O)Nc1ccc(Cl)cc1 | - | - | MIC | - | My 331/88 | 31 µM
Cc1ccc2nc(SCC(=O)N/N=C/c3ccc(C(F)(F)F)cc3)n(-c3ccccc3)c(=O)c2c1 | - | - | MIC | - | H37Rv | >6.25 µg/mL
Fc1ccc(C2Cc3nc4ccccc4c(-c4ccccc4)c3S2)cc1 | - | - | MIC | agar | H37Rv | 8.76 µM
NCC(O)c1ccc(O)c(O)c1 | - | - | MIC | - | H37Rv | 10 µg/mL
COc1nc2ccc(Br)cc2cc1/C=N/NC(=O)c1ccc(-n2cccc2)cc1 | - | - | MIC | resazurin | H37Rv | 1.6 µg/mL
C#CCSc1nnc(-c2ccc([N+](=O)[O-])o2)s1 | - | - | MIC | - | H37Rv | 1.56 µg/mL
CN1CCC23c4c5ccc(O)c4OC2/C(=N/N=C2\CCC4(O)C6Cc7ccc(O)c8c7C4(CCN6C)C2O8)CCC3(O)C1C5 | - | - | MIC bound | BACTEC | H37Rv | >12.5 µg/mL
N#Cc1c(-c2ccc(F)cc2)nc(NCc2ccccc2)[nH]c1=O | - | - | MIC | - | H37Ra | >50 µg/mL
NCC(=O)c1ccc(O)c(O)c1 | - | - | MIC | - | H37Rv | 10 µg/mL
O=C(N/N=C/c1ccc[nH]1)c1cnccn1 | - | - | MIC | resazurin | ATCC 27294 | >100 µg/mL
CC(=O)n1cc2cc([N+](=O)[O-])ccc2n1 | - | - | MIC bound | BACTEC | H37Rv | >6.25 µg/mL
CO[C@H]1/C=C/O[C@@]2(C)Oc3c(C)c(O)c4c(O)c(c(/C=N/N5CCN(C)CC5)c(O)c4c3C2=O)NC(=O)/C(C)=C\C=C\[C@H](C)[C@H](O)[C@@H](C)[C@@H](O)[C@@H](C)[C@H](OC(C)=O)[C@@H]1C | - | Multidrug-resistant | MIC | resazurin | FJ05120 | >256 µg/mL
CC(C)NCC1CCc2cc(CO)c([N+](=O)[O-])cc2N1 | - | - | MIC bound | BACTEC | H37Rv | >12.5 µg/mL
Cc1ccc2nc(SCC(=O)N/N=C/c3ccccc3O)n(-c3ccccc3)c(=O)c2c1 | - | - | MIC | - | H37Rv | >6.25 µg/mL
CC1COc2c(N3CCN(C)CC3)c(F)cc3c(=O)c(C(=O)O)cn1c23 | - | - | MIC90 | - | - | 1–2 µg/mL
CCOc1ccc(N2C(=O)/C(=C/c3ccccc3)S/C2=N\c2ccccn2)cc1 | - | - | MIC | - | H37Rv | ≥25 µg/mL
Nc1ccccc1C(=O)Nc1cccc(Cl)c1 | - | - | MIC | - | My 331/88 | >500 µM
CCCC/C=C\CCCCCCCCCc1cc(O)cc(OC)c1 | - | - | MIC | - | H37Rv | 33.8 µg/mL
Cc1ccc(NCCNCCO)c2c(=O)c3cc(O)ccc3sc12 | - | - | MIC bound | BACTEC | H37Rv | ≤12.5 µg/mL
COc1nc2ccc(C)cc2cc1/C=N/NC(=O)c1ccc(-n2cccc2)cc1 | - | - | MIC | resazurin | H37Rv | 1.6 µg/mL
Nc1ccccc1C(=O)Nc1cccc(F)c1 | - | - | MIC | - | My 331/88 | 500 µM
CO/N=C1\CN(c2nc3c(cc2F)c(=O)c(C(=O)O)cn3C2CC2)CC1CN | - | - | MIC50 | - | - | 4 µg/mL
COC(=O)c1c(O)c2c(c3c1OC(C)(C)CC3)OC(C)(C)CC2 | 12.5 µg/mL | - | inhibition | BACTEC | H37Rv | 82%
O=C(N/N=C/c1ccc(-c2ccccn2)cc1)c1cnccn1 | - | - | MIC | resazurin | ATCC 27294 | >100 µg/mL
CCCCCCC(=O)c1cc(O)cc(O)c1 | - | - | MIC | - | H37Rv | 19 µg/mL
Cc1cc(C)nc(NS(=O)(=O)c2ccc(NC(=O)c3cccnc3Nc3cccc(Cl)c3)cc2)n1 | 12.5 µg/mL | - | inhibition | BACTEC | H37Rv | 77%
CCOc1ccc(N2C(=O)/C(=C/c3ccc(NC(C)=O)cc3)S/C2=N\c2ccccn2)cc1 | - | - | MIC | - | H37Rv | ≥25 µg/mL
NC(=O)c1cnccn1 | - | - | MIC | resazurin | ATCC 27294 | >100 µg/mL
C=CCn1c(O)c(/C=C2\C=CC(=O)c3ncccc32)s/c1=N\c1nc2ccccc2s1 | - | - | MIC | - | H37Rv | 12.5 µg/mL
Fc1ccc(C2Cc3nc4ccc(Cl)cc4c(-c4ccccc4)c3S2)cc1 | - | - | MIC | agar | MDR | 3.98 µM
C/C(=N\NC(=O)CNC(=O)c1ccccc1)c1ccc2ccccc2c1 | - | - | MIC | BACTEC | H37Rv | 12.5 µg/mL
NC1[C@H]2CN(c3nc4c(cc3F)c(=O)c(C(=O)O)cn4-c3ccc(F)cc3F)C[C@@H]12 | - | - | MIC50 | - | - | 32 µg/mL
O=C(N/N=C/c1ccco1)c1cnccn1 | - | - | MIC | resazurin | ATCC 27294 | >100 µg/mL
C[C@@H]1CN(c2c(F)c(N)c3c(=O)c(C(=O)O)cn(C4CC4)c3c2F)C[C@H](C)N1 | - | - | MIC | - | S-24M (susceptible) | 0.2 µg/mL
Cc1cccc(/C=N/NC(=O)CSc2nc3ccc(C)cc3c(=O)n2-c2ccccc2)c1 | - | - | MIC | - | H37Rv | >6.25 µg/mL
C1=C(c2nc(-c3ccccc3)no2)c2ccccc2C12CCN(CC1CC1)CC2 | - | - | EC80 | resazurin | ss18b | 50 µM
CCc1cn(C2OC(CO)CC2F)c(=O)[nH]c1=O | - | - | MIC25 | resazurin | H37Ra | 100 µg/mL
CCCCCCCCNc1nc(-c2ccc(F)cc2)c(C#N)c(=O)[nH]1 | - | - | MIC | - | H37Ra | >50 µg/mL
CC(C)c1ccc(NC(=O)c2cc(Cl)ccc2N)cc1 | - | - | MIC | - | My 331/88 | 31 µM
COc1ccc(-c2noc(C3=CC4(CCN(CC5CCCO5)CC4)c4ccccc43)n2)cc1 | - | Streptomycin-resistant | MIC | resazurin | 136570 | 0.78 µM
COc1ccc(/C=N/NC(=O)CSc2nc3ccc(C)cc3c(=O)n2-c2ccccc2)cc1 | - | - | MIC | - | H37Rv | >6.25 µg/mL
Cc1ccc(-n2nnc3ccccc3c2=O)cc1 | - | - | MIC | - | My 331/88 | >125 µM

The first 7 rows once more:

SMILES | tested at | mutations | read-out | read by | strain or isolate | value
N#Cc1c(Cl)c2cc([N+](=O)[O-])ccc2n2c1nc1ccccc12 | - | - | MIC bound | resazurin | H37Rv | >6.25 µg/mL
CCCCCc1cc(O)cc(OC)c1 | - | - | MIC | - | H37Rv | 60 µg/mL
COc1ccc(OC)c(/C=N/NC(=O)CSc2nc3ccc(C)cc3c(=O)n2-c2ccccc2)c1 | - | - | MIC | - | H37Rv | >6.25 µg/mL
COc1ccc2nc(C)cc(N/N=C/c3ccccc3[N+](=O)[O-])c2c1 | - | - | MIC | - | H37Rv | 10 µg/mL
Clc1ccc(C2Cc3nc4ccc(Cl)cc4c(-c4ccccc4)c3S2)c(Cl)c1 | - | - | MIC | agar | MDR | 1.76 µM
CCn1cc(C(=O)O)c(=O)c2cc(F)c(N3CCN(C)CC3)cc21 | - | - | MIC90 | - | 21 strains | 8 µg/mL
Clc1ccc(C2Cc3nc4ccc(Cl)cc4c(-c4ccccc4)c3S2)cc1 | - | - | MIC | agar | H37Rv | 3.82 µM